{
  "source": "PubChem BioAssay AID504848",
  "about": "(National Center for Advancing Translational Sciences (NCATS), 2011)",
  "note": "The entries are a selection whose mix differs from that of the whole data set. Inconclusive results are not listed. Active and inactive are the calls of the source. Calls follow the shape of the dose curve; as a rule, active = well fitted inhibition curve with a large enough effect; inconclusive = small, poorly fitted or top-dose-only effect, or effect the other way; inactive = no such curve, though single readings can be large or run the other way. Potency is read from the fitted curve at half-maximal effect.",
  "data": [
    {"experiment": "Confirmation screen for delayed death inhibitors of the malarial parasite plastid, 96 hour incubation; also: nearly all actives have a fitted effect of over 60% in size", "conditions": "P. falciparum luciferase growth in erythrocytes", "values": [
      {"smiles": "CP(=O)(Nc1ccc(SC(F)(F)F)cc1)Oc1ccccc1", "note": "(stereo unspecified)", "Potency": "active: 4.47 µM"}
    ]}
  ]
}
